Reference: patent publication EP2196204A1 (priority 2007, dated 2009)

Assays:
Hep 3B = test: MTT cell survival assay, hepatic cancer cells Hep 3B (NCI anti-cancer agents screen model); conditions: Hep3B, 48 hours incubation
DU-145 = test: MTT cell survival assay, prostate cancer cells DU-145 (NCI screening model); assay type: cell-based, human; conditions: for IC50: DU-145, 48 hours incubation, MTT; for Cell survival rate: 48 hours
LNCaP = test: MTT cell survival assay, prostate cancer cells LNCaP (NCI screening model); conditions: 48 hours incubation
A549 = test: MTT cell survival assay, lung cancer cell A549 (NCI anti-cancer agents screen model); conditions: A549, 48 hours incubation
Hep G2 = test: MTT cell survival assay, hepatic cancer cells Hep G2 (NCI anti-cancer agents screen model); conditions: HepG2, 48 hours incubation
[1] = DU-145, concentration 0.001 ng/ml
[2] = DU-145, concentration 0.01 ng/ml
[3] = DU-145, concentration 0.1 ng/ml
[4] = DU-145, concentration 100 ng/ml

With verrucarin J the IC50 (Hep 3B) was 3.12 ng/mL, the IC50 (DU-145) was 0.28 ng/mL and the Cell survival rate (DU-145; [1]) was 100.21%. It also gave a Cell survival rate (DU-145; [2]) of 101.30%, a Cell survival rate (DU-145; [3]) of 81.11% and a Cell survival rate (DU-145; DU-145, concentration 1 ng/ml) of 19.93%. It also gave a Cell survival rate (DU-145; [4]) of 20.36%, an IC50 (LNCaP) of 0.31 ng/mL and an IC50 (A549) of 2.34 ng/mL. The IC50 (Hep G2) was 13.31 ng/mL.
verrucarin A was tested, and the IC50 (Hep 3B) was 2.31 ng/mL, the IC50 (DU-145) was 0.02 ng/mL and the Cell survival rate (DU-145; [1]) was 94.33%. For the same substance, the Cell survival rate (DU-145; [2]) was 72.31%, the Cell survival rate (DU-145; [3]) was 21.01% and the Cell survival rate (DU-145; DU-145, concentration 1 ng/ml) was 16.99%. The Cell survival rate (DU-145; [4]) was 16.96%, the IC50 (LNCaP) was 2.85 ng/mL and the IC50 (A549) was 1.12 ng/mL. The IC50 (Hep G2) was 10.21 ng/mL.
